Assay results: patent US12590094B2, “Compounds for the treatment of neurodegenerative and metabolic disorders” (UNIVERSITY OF FLORIDA RESEARCH FOUNDATION, INCORPORATED, priority 2019, dated 2026)

System: PK1 neuroblastoma cells treated with TPrP
Settings: @ 6.4 μM

COc1cccc(Nc2nnc(Cc3ccncc3)c3ccccc23)c1
neuroprotection: 44%
